From PMC6131760, “4-Phenyl-1,3-thiazole-2-amines as scaffolds for new antileishmanial agents” (The Journal of Venomous Animals and Toxins Including …, 2018)

Legend:
THP1 cells = assay: Cytotoxicity assay in THP-1 cells differentiated into macrophages (PrestoBlue); format: cell-based, human; settings: CC50 THP1 cells / IC50 L. amazonensis
Protocol: (§1) The cytotoxicity was measured in L929 and THP1 cell lines using PrestoBlue®Cell Viability Reagent (Thermo Scientific, Invitrogen) as described by Lall et al. with modifications. First, cells were maintained in RPMI 1640 (Gibco) supplemented with 10% fetal bovine serum (FBS) and 1% antibiotics (100 U/mL penicillin, 100 μg/mL streptomycin). Cell cultures were grown and maintained at 37 °C in a humidified incubator with 5% CO2. Then, L929 cells were seeded in 96-wells flat microtiter plate at a concentration of 1 × 10^5cells/mL (100 μL/well). To THP-1 cells, cultures were differentiated into macrophages by adding 50 ng/mL 12-myristate 13-acetate phorbol (PMA) (Calbiochem, San Diego, USA) in RPMI-free FBS. After 24 h of culturing, the adhered cells were washed with PBS and RPMI with 10% FBS were added. […] The plates were incubated for 48 h and, thereafter, 20 μL/well PrestoBlue® was added. The plates were incubated for further 2 h and the fluorescence was read at bottom using 540–570 nm excitation and 580–610 nm emission. The average of the fluorescence values of the control wells (medium plus PrestoBlue®) was subtracted from the fluorescence value of the positive controls (cells, medium, and PrestoBlue®) and from each experimental well (cells, medium, compounds and PrestoBlue®). In all cases, the CC50 was calculated as described as in the Antileishmanial assay Section. Selectivity indexes (SI) were calculated by dividing CC50 against each mammalian cell line by the IC50 against L. amazonensis (CC50/IC50).

L929 cells = assay: Cytotoxicity assay in L929 cells (PrestoBlue); format: cell-based; settings: CC50 L929 cells / IC50 L. amazonensis
Protocol: as §1

VERO cells = assay: Cytotoxicity assay in Vero cells (MTT); format: cell-based, African green monkeys; settings: CC50 VERO cells / IC50 L. amazonensis
Protocol: Cytotoxicity was also evaluated using Vero cells, a monkey kidney cell line obtained from the American Type Culture Collection (ATCC CCL-81; Manassas, VA). The cytotoxicity was determined by the 3-(4,5dimethylthiazol- 2-yl)-2,5-diphenyltetrazolium bromide (MTT) method according to a previously described procedure.
In all cases, the CC50 was calculated as described as in the Antileishmanial assay Section.
Selectivity indexes (SI) were calculated by dividing CC50 against each mammalian cell line by the IC50 against L. amazonensis (CC50/IC50).

Nc1nc(-c2ccccc2)cs1 [Compound 1]
SI (THP1 cells): 0.15 | SI (L929 cells): 0.20 | SI (VERO cells): 0.74

Cc1ccc(-c2csc(N)n2)cc1 [Compound 2]
SI (THP1 cells): 1.26 | SI (L929 cells): 1.48 | SI (VERO cells): 6.11

Nc1nc(-c2ccc(Cl)c(Cl)c2)cs1 [Compound 4]
SI (VERO cells): 4.80

Nc1nc(-c2ccc(C(F)(F)F)cc2)cs1 [Compound 5]
SI (VERO cells): 9.59

CC(C)(C)c1ccc(-c2csc(N)n2)cc1 [Compound 6]
SI (THP1 cells): 2.20 | SI (L929 cells): 1.30 | SI (VERO cells): 5.69

Nc1nc(-c2ccc(Cl)cc2)cs1 [Compound 8]
SI (THP1 cells): 0.70 | SI (L929 cells): 0.99 | SI (VERO cells): 5.14
